Pooled drug test results. Numbers come from NIAID ChemDB, via PubChem.

Shared fields: enzyme or target tests; agent: HIV-1; target: Reverse transcriptase; method: nucleotide incorporation; endpoint: IC50

Neighbouring rows are from separate reports. Blank or dashed fields: not listed here. Two numbers with a dash give a range or band. ICn: concentration for n% inhibition.

SMILES,changes,value
O=C(NCCc1ccccc1)Nc1nc2ccccc2s1,,>10 µg/mL
COc1ccc2c(c1)C=CC(C#N)N2C(=O)c1ccccc1,,>50 µM
Cc1cccc2[nH]c(C(=O)N3CCN(c4ncccc4NC(C)C)CC3)cc12,,<100 µM
CC(C)Nc1ccc(F)cc1N1CCN(C(=O)c2cc3ccccc3[nH]2)CC1,,<100 µM
Cn1cc(NC(=O)c2nc(NC(=O)/C=C/C(=O)Nc3cn(C)c(C(=O)Nc4cn(C)c(C(=O)NCCC(=N)N)n4)n3)cn2C)nc1C(=O)NCCC(=N)N,,~150 µM
Cc1cccc2sc(NC(=O)NCCc3ccccc3)nc12,,>10 µg/mL
CCN1C(=O)C=CC1=O,,750 µM
O=C(NCCc1ccccc1)Nc1nc(C(F)(F)F)cs1,,<0.1 µg/mL
Cn1ccnc1CNC(=O)c1[nH]c2ccc(Cl)cc2c1S(=O)c1ccccc1,,0.003–0.035 µM
CCOc1ccc2c(N/N=C/c3ccc(N(C)C)cc3)cc(C)nc2c1,,0.82 µM
O=C(NCCc1ccccc1)Nc1nc2ccc(F)cc2s1,,>10 µg/mL
CC(C)=CCC[C@@H](C)[C@@H]1CC[C@]2(C)C3=CC[C@H]4C(C)(C)[C@@H](O)CC[C@]4(C)C3=CC[C@@]12C,,3.3 µM
C=C(C)C1C=C[C@@H](OC(=O)c2cccnc2)C23COC(C)(C(=O)[C@@]4(OC(C)=O)C[C@H](C)[C@H](OC(=O)CC)C4[C@H]2OC(=O)CC)C13,,~200 µg/mL
Cn1cc(C(=O)Nc2cc(C(=O)NCCCCCC(=O)Nc3cc(C(=O)Nc4cc(C(=O)NCCC(=N)N)n(C)c4)n(C)c3)cn2C)cc1NC(=O)CN=C(N)N,,~180 µM
Cc1c(Cc2ccccc2)nc(OC2CCCCC2)[nH]c1=O,,2.2 µM
CC(C)Nc1ccnnc1N1CCN(C(=O)c2cc3cc(F)ccc3[nH]2)CC1,,<100 µM
CCOC(=O)c1cccn1S(=O)(=O)c1ccc2n[nH]nc2c1,,9 µM
Oc1cc(O)c2c(c1)O[C@H](c1ccc(O)c(O)c1)[C@H](O)C2c1c(O)cc(O)c2c1O[C@@]1(c3ccc(O)c(O)c3)Oc3cc(O)c4c(c3[C@@H]2[C@H]1O)O[C@H](c1ccc(O)c(O)c1)[C@H](O)C4,,>20 µg/mL
CCOC(=O)CCSc1nc(-c2cccs2)c2c(n1)-c1ccccc1CC2,,4.4 µM
CCc1cc(NCc2nc3c(C)ccc(C)c3o2)c(=O)[nH]c1C,,0.047 µM
CC(C)Nc1cccnc1N1CCN(C(=O)c2[nH]c3c(/C(O)=C/C(=O)C(=O)O)cccc3c2Cl)CC1,,>100 µM
Cc1ccc(S(=O)(=O)n2c(=O)[nH]c3ccc(Cl)cc32)cc1C,K103N,1.2 µM
CCOC(=O)c1cccn1S(=O)(=O)c1ccc2[nH]c(=O)[nH]c2c1,,2 µM
Cc1cc(N/N=C/c2occc2CO)nc2ccccc12,,1.06 µM
O=C(OC[C@H]1O[C@@H](OC(=O)c2cc(O)c(O)c(O)c2)[C@H](OC(=O)c2cc(O)c(O)c(O)c2)[C@@H](OC(=O)c2cc(O)c(O)c(O)c2)[C@@H]1OC(=O)c1cc(O)c(O)c(O)c1)c1cc(O)c(O)c(O)c1,,>20 µg/mL
CC(C)COC(=O)N1c2ccc([N+](=O)[O-])cc2C=CC1C#N,,33.8 µM
CCNc1cccnc1N1CCN(C(=O)c2cc3cc(C(=O)OCc4ccccc4)ccc3[nH]2)CC1,,<100 µM
O=C1O[C@H]2[C@@H]3OC(=O)c4cc(O)c(O)c(O)c4-c4c(cc(O)c(O)c4O)C(=O)OC[C@H]2O[C@@H](OC(=O)c2cc(O)c(O)c(O)c2)[C@@H]3OC(=O)c2cc(O)c(O)c3c2[C@@H]2C1=CC(=O)[C@](O)(O3)C2(O)O,,>20 µg/mL
COc1cc([C@H]2c3c(cc4c(c3OC)OCO4)C[C@H]3COC(=O)[C@@H]32)cc(C)c1OC,,122 µM
CC(C)=CCC[C@@](C)(O)C1CC[C@]2(C)C1CC[C@@H]1[C@@]3(C)CC[C@H](O)C(C)(C)[C@@H]3CC[C@]12C,,>45 µM
O=C1OCC2OC(=O)c3cc(O)c(O)c(O)c3-c3c(O)c(O)c(O)c4c3C(=O)OC(C2OC(=O)c2cc(O)c(O)c(O)c2-c2c1cc(O)c(O)c2O)C1OC(=O)c2c-4c(O)c(O)c(O)c2C1c1c(O)cc(O)c2c1O[C@H](c1ccc(O)c(O)c1)C(O)C2,,>20 µg/mL
COc1ccc(OC)c2c(=O)c(O)c[nH]c12,,>100 µM
O=C(NCc1cc[nH]c(=O)c1)c1[nH]c2ccc(Cl)cc2c1S(=O)(=O)c1ccccc1,,0.003–0.035 µM
CCOC(=O)N1c2ccccc2C=CC1C#N,RT-P236L,5.3 µM
CCc1c(-c2coc(CC/C(C)=C/c3ccccc3)n2)oc(OC)c(C)c1=O,,376 µM
CCNc1cccnc1N1CCN(Cc2cc(C)c(O)c(C)c2)CC1,,<100 µM
O=C(N[C@@H](CO)c1ccccc1)c1[nH]c2ccc(Cl)cc2c1S(=O)(=O)c1ccccc1,,0.003–0.035 µM
CCOC(=O)N1c2ccc(OC)cc2C=CC1C#N,RT-P236L,17.6 µM
O=C(OC1[C@H](OC(=O)c2cc(O)c(O)c(O)c2)CC(OC(=O)c2cc(O)c(O)c(O)c2)(C(=O)O)C[C@H]1OC(=O)c1cc(O)c(O)c(O)c1)c1cc(O)c(O)c(O)c1,,>10 µM
CCOc1ccc2nc(NC(=O)NCCc3ccccc3)sc2c1,,>10 µg/mL
O=C(/C=C/c1ccc(O)c2c1[C@H](C(=O)O[C@H](Cc1ccc(O)c(O)c1)C(=O)O)[C@@H](c1ccc(O)c(O)c1)O2)O[C@H](Cc1ccc(O)c(O)c1)C(=O)O,,68 µM
CCc1c(C)[nH]c(=O)c(N)c1Sc1cc(C)cc(C)c1,,0.195 µM
Cn1cc(C(=O)Nc2cc(C(=O)NCCCCC(=O)Nc3cc(C(=O)Nc4cc(C(=O)NCCC(=N)N)n(C)c4)n(C)c3)cn2C)cc1NC(=O)CN=C(N)N,,>200 µM
COc1cc(OC)c(OC)cc1/C=N/Nc1cc(C)nc2c(OC)cccc12,,0.04 µM
O=C1OC2C(O)OC(CO)C(O)C2OC(=O)c2cc(O)c(O)c(O)c2-c2c1cc(O)c(O)c2O,,>20 µg/mL
CCC(C)Oc1nc(Cc2ccccc2)cc(=O)[nH]1,,4.2 µM
CC(=O)Nc1ccc2[nH]c(C(=O)N3CCN(c4ncccc4NC(C)C)CC3)cc2c1,,<100 µM
CCCOC(=O)N1c2ccccc2C=CC1C#N,RT-P236L,3.4 µM
S=C1NC2=C(CCc3ccccc32)C(c2cccs2)N1,,6.1 µM
N=C(N)c1ccc(-c2cc3ccc(C(=N)N)cc3[nH]2)cc1,,250 µM
O=C(CSc1nc(-c2cccs2)c2c(n1)-c1ccccc1CC2)NN1C(=O)c2ccccc2C1=O,,16.2 µM
CCc1cc(CCc2nc3ccccc3o2)c(=O)[nH]c1C,RT-Y181H,1.24 µM
C=C(C)[C@@H]1CC[C@]2(CO)CC[C@]3(C)[C@H](CC[C@@H]4[C@@]5(C)CC[C@H](O)C(C)(C)[C@@H]5CC[C@]43C)[C@@H]12,,14 µM
CCC(=O)Nc1c(Sc2cc(C)cc(C)c2)c(C)c[nH]c1=O,,>40 µM
O=C(NCc1cccnc1)c1[nH]c2ccc(Cl)cc2c1Sc1ccccc1,,0.003–0.035 µM
COCC(C)Nc1cccnc1N1CCN(C(=O)c2cc3cc(F)ccc3[nH]2)CC1,,<100 µM
CC(C)Nc1cncnc1N1CCN(C(=O)c2cc3cc(F)ccc3[nH]2)CC1,,<100 µM
CC/C(=N\Nc1cc(C)nc2ccccc12)n1c2ccccc2c2ccccc21,,1.47 µM
CC1=CC2C(=O)c3cc(OCC(=O)c4ccccc4)c(Br)c(O)c3C(=O)C2C(O)=C1,,35 µM
Oc1cc(O)c2c(c1)O[C@@]1(c3ccc(O)c(O)c3)Oc3cc(O)c4c(c3[C@@H]2[C@H]1O)O[C@H](c1ccc(O)c(O)c1)[C@H](O)C4,,>20 µg/mL
CCCOC(=O)N1c2ccc(OC)cc2C=CC1C#N,RT-P236L,4.9 µM
C=C(C)C1C=C[C@@H](OC(=O)c2cccnc2)C23COC(C)(C(=O)[C@@]4(OC(C)=O)C[C@H](C)[C@H](OC(=O)CC)C4[C@H]2OC(=O)CCC)C13,,>200 µg/mL
O=C(CCl)SC1=NC(c2cccs2)C2=C(N1)c1ccccc1CC2,,2.9 µM
COc1c2c(cc3c1[C@H](c1ccc(O)c(Oc4ccccc4)c1)[C@H]1C(=O)OC[C@@H]1C3)OCO2,,5.3 µM
CC(C)Nc1cccnc1N1CCN(C(=O)c2cc3ccc(OCc4ccccc4)cc3[nH]2)CC1,,<100 µM
N#CC1C=Cc2ccccc2N1C(=O)OCCOc1ccccc1,,>50 µM
CSc1nc(-c2cccs2)c2c(n1)-c1ccccc1CC2,,2.33 µM

Repeating the final 7 entries:

SMILES,changes,value
CCCOC(=O)N1c2ccc(OC)cc2C=CC1C#N,RT-P236L,4.9 µM
C=C(C)C1C=C[C@@H](OC(=O)c2cccnc2)C23COC(C)(C(=O)[C@@]4(OC(C)=O)C[C@H](C)[C@H](OC(=O)CC)C4[C@H]2OC(=O)CCC)C13,,>200 µg/mL
O=C(CCl)SC1=NC(c2cccs2)C2=C(N1)c1ccccc1CC2,,2.9 µM
COc1c2c(cc3c1[C@H](c1ccc(O)c(Oc4ccccc4)c1)[C@H]1C(=O)OC[C@@H]1C3)OCO2,,5.3 µM
CC(C)Nc1cccnc1N1CCN(C(=O)c2cc3ccc(OCc4ccccc4)cc3[nH]2)CC1,,<100 µM
N#CC1C=Cc2ccccc2N1C(=O)OCCOc1ccccc1,,>50 µM
CSc1nc(-c2cccs2)c2c(n1)-c1ccccc1CC2,,2.33 µM